From patent US5817692A, “Endoperoxides useful as antiparasitic agents” (priority 1996, dated 1998) come the findings set out here.

For this data set, the system named is Toxoplasma gondii. The data set is described as follows: inhibition of intracellular replication of T. gondii in infected L929 cells, uracil incorporation assay. Format: cell-based. Conditions: 1 μM. On the procedure:
Toxoplasma gondii is the causative agent of cerebral toxoplasmic encephalitis, an AIDS-related opportunistic infection. The biological activity of the endoperoxide JHU 2886 of the present invention was measured against Toxoplasma gondii cultured in L929 cells. The inhibitory activity of the synthetic organic endoperoxide was tested by measuring the intracellular replication of T. gondii in infected L929 cells. The inhibition of the intracellular replication of T. gondii was determined using the uracil incorporation assay (20). […] This compound is referred to as JHU 2886 in Table 1. In this experiment atovaquone and artemisinin were used as positive controls. Atovaquone is a broad-spectrum anti-infective drug having antimalarial and antitoxoplasmosis activity (19). | measured using the MTT assay (Promega kit) and inhibition of the | intracellular replication of T. gondii was determined using the uracil | incorporation assay.

For `O=C1C(O)=C([C@H]2CC[C@H](c3ccc(Cl)cc3)CC2)C(=O)c2ccccc21` [Atovaquone], the “therapeutic index (ratio of activity to toxicity), as activity/toxicity” value is 95/17.
The value for `C[C@@H]1CC[C@H]2[C@@H](C)C(=O)O[C@@H]3O[C@@]4(C)CC[C@@H]1[C@]32OO4` [Artemisinin] was 76/10.
`c1ccc(C23CCCC(c4ccccc4)(CC2)OO3)cc1` [JHU 2886]: the “therapeutic index (ratio of activity to toxicity), as activity/toxicity” value is given as 70/0.
